Reference: PubChem BioAssay AID1259414 (Drosophila RNAi Screening Center, 2018)
Purpose: 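Genome-wide screen for host control of endosymbiont load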 (primary screen). Cell system: Drosophila JW18 cells infected with Wolbachia. Knock-down reagent: long dsRNA against Drosophila genes, 0.25 µg dsRNA per well of a 384-well plate. Duration: 5 days. Conditions: cells persistently infected with Wolbachia before knock-down; no added drug. Measured: 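Automated imaging of bacterial rRNA staining divided by host cell count, reported as plate-normalised robust z-score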. Scale: Wolbachia per cell robust z: higher = more Wolbachia per host cell than the plate typical. Active means: 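Active if absolute robust z reaches 1.5 in two or more of three replicates, leaving out multi- or no-target dsRNAs, genes unexpressed in JW18 and A1 wells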.
The deposit covers about 24,000 reagents; shown is a random part of those with a known target gene and a result. Of all reagents, about 1,210 (5%) were called active. 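Inactive calls also include excluded dsRNAs with several or no targets, genes unexpressed in JW18, and well A1, regardless of score.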 A plus sign joins genes that one reagent is predicted to hit.

| Target gene | PubChem SID | Wolbachia per cell robust z, rep 1 | Wolbachia per cell robust z, rep 2 | Wolbachia per cell robust z, rep 3 | Outcome |
| --- | --- | --- | --- | --- | --- |
| CG5282 | SID104191567 | -2.29 | -0.876 | -3.11 | inactive |
| CG3699 | SID104197963 | -0.87 | -0.68 | -1.12 | inactive |
| CG3699 | SID104198434 | -4.57 | -0.701 | 0.435 | inactive |
| CG30334 | SID104185137 | 0.868 | 0.281 | -0.129 | inactive |
| CG30334 | SID104203025 | -0.649 | -1.12 | -1.25 | inactive |
| Vsp37A | SID104198586 | 0.815 | 0.313 | 0.418 | inactive |
| nudC | SID104190888 | 0.968 | -0.521 | 0.354 | inactive |
| nudC | SID104190889 | 0.649 | -0.764 | -0.857 | inactive |
| Cyp309a1 | SID104180539 | 0.259 | -0.115 | 1.03 | inactive |
| Boh2 | SID104182569 | -0.369 | -0.838 | -0.191 | inactive |
| Nnp-1 | SID104181957 | 1.23 | 0.111 | 0.45 | inactive |
| Nnp-1 | SID104208360 | -0.211 | 1.22 | 1.38 | inactive |
| CG14072 | SID104182167 | -0.0503 | -0.572 | 0.439 | inactive |
| nanos | SID104196810 | -0.806 | 0.382 | 0.409 | inactive |
| nanos | SID104203814 | -0.434 | -0.393 | 0.94 | inactive |
| CG2865 | SID104198319 | 0.531 | 0.386 | 0.412 | inactive |
| CG2865 | SID104198320 | 0.0474 | -0.321 | -0.114 | inactive |
| CG2865 | SID104206630 | -0.814 | 0.0549 | -1.49 | inactive |
| CG7924 | SID104190723 | -0.731 | 0.151 | -0.167 | inactive |
| CG7924 | SID104204205 | -1.04 | -0.614 | -0.396 | inactive |
| CG3021 | SID104197957 | -0.459 | 0.617 | -1.4 | inactive |
| CG3021 | SID104198444 | 0.174 | -1.29 | -5.06 | inactive |
| kis | SID104180313 | -0.486 | -0.772 | 1.18 | inactive |
| kis | SID104180417 | 0.201 | -1.91 | 0.256 | inactive |
| kis | SID104180615 | 1.15 | 0.226 | -11.6 | inactive |
| kis | SID104216724 | 0.353 | 0.0435 | 0.369 | inactive |
| Baldspot | SID104189463 | 0.15 | -0.601 | -0.286 | inactive |
| fabp + sea | SID104195906 | -3.5 | -0.451 | -3.14 | inactive |
| GlcAT-I | SID104197099 | 1.13 | -0.172 | 0.846 | inactive |
| CG1494 | SID104200301 | -2.54 | -2.38 | -2.43 | active |

8 entries from above, sorted by “Wolbachia per cell robust z, rep 1”, low to high:
| Target gene | PubChem SID | Wolbachia per cell robust z, rep 1 | Wolbachia per cell robust z, rep 2 | Wolbachia per cell robust z, rep 3 | Outcome |
| --- | --- | --- | --- | --- | --- |
| CG7924 | SID104204205 | -1.04 | -0.614 | -0.396 | inactive |
| kis | SID104180313 | -0.486 | -0.772 | 1.18 | inactive |
| CG3021 | SID104197957 | -0.459 | 0.617 | -1.4 | inactive |
| Baldspot | SID104189463 | 0.15 | -0.601 | -0.286 | inactive |
| CG3021 | SID104198444 | 0.174 | -1.29 | -5.06 | inactive |
| kis | SID104180417 | 0.201 | -1.91 | 0.256 | inactive |
| kis | SID104216724 | 0.353 | 0.0435 | 0.369 | inactive |
| kis | SID104180615 | 1.15 | 0.226 | -11.6 | inactive |

Additional records:
| Target gene | PubChem SID | Wolbachia per cell robust z, rep 1 | Wolbachia per cell robust z, rep 2 | Wolbachia per cell robust z, rep 3 | Outcome |
| --- | --- | --- | --- | --- | --- |
| sky | SID104182175 | 0.312 | 0.103 | 0.25 | inactive |
| sky | SID104183006 | 0.673 | -0.931 | -0.838 | inactive |
| sky | SID104183007 | 0.259 | -4.14 | -0.941 | inactive |
| Cyp6a14 | SID104187168 | -1.63 | -1.57 | -0.315 | active |
| Cyp6a14 | SID104203349 | 0.706 | 1.56 | 0.956 | inactive |
| CG13050 | SID104189723 | 0.358 | -0.607 | 1.58 | inactive |
| SP555 + CG14042 | SID104183220 | 0.217 | 0.175 | -0.511 | inactive |
| mRpS11 | SID104195524 | -0.651 | 0.422 | -8.31 | inactive |
| zip | SID104184517 | -2.18 | 0.565 | -1.95 | active |
| zip | SID104201943 | 0.116 | 0.0346 | 0.458 | inactive |
| zip | SID104206960 | 0.573 | 0.344 | 1.4 | inactive |
| CG17572 | SID104182421 | -3.34 | -3.75 | -1.01 | inactive |
| Timp | SID104196874 | 0.0843 | 0.305 | -0.669 | inactive |
| CG15473 | SID104197848 | -2.51 | -3.14 | -2.11 | inactive |
| Bet5 | SID104194392 | -0.458 | 0.72 | 0.535 | inactive |
| Hou | SID104199793 | -2.47 | -1.48 | -1.26 | inactive |
| Hou | SID104201840 | -0.199 | -0.332 | 0.0758 | inactive |
| Hou | SID104205347 | -0.41 | -0.393 | 0.324 | inactive |
